This passage reports NikA melting temperature results from paper PMC11091072, “Targeting bacterial nickel transport with aspergillomarasmine A suppresses virulence-associated Ni-dependent enzymes” (Nature Communications, 2024).

Like-named read-outs stand apart in the source and are kept apart here.

This series has as its system NikA. Type of series: binding, Klebsiella pneumoniae. Conditions: NikA 2 µM alone (Fig S12A).

Regarding `[Cl-].[Cl-].[Zn+2]` [ZnCl2], the NikA melting temperature is, setting by setting: (ZnCl2 12.5 μM) 59 ºC; (ZnCl2 25 μM) 60 ºC; (ZnCl2 50 μM) 62 ºC.
